Source: patent US10143737B2 (Bionor Immuno AS, priority 2014, dated 2018)

Assay: general procedure: Fmoc solid-phase peptide synthesis; Tenta Gel P RAM, theoretical loading 0.20 meq/g
Conditions: whole synthesis, analytical HPLC

| Substance | final HPLC purity |
| --- | --- |
| WIIPGLNPLVGGGKLYSPTSILCG-NH2 | 95% |
| RFIIPNIFTALSGGRRALLYGATPYAIG-NH2 | more than 95% |
| RAIPIPAGTLLSGGGRAIYKRTAILG-NH2 | more than 95% |
| RALGPAATLQTPWTASLGVG-NH2 | more than 95% |
| KALGPGATLQTPWTACQGVG-NH2 | 87% |
| RWLLLGLNPLVGGGRLYSPTSILG-NH2 | more than 95% |

Assay: Fmoc solid-phase peptide synthesis; Tenta Gel P RAM, theoretical loading 0.20 meq/g
Conditions: whole synthesis, analytical HPLC

| Substance | final HPLC purity |
| --- | --- |
| KFIIPNIFSALGGAISYDLNTNILNCI | more than 80% |
| KFIIPNIFSALSGGGAISYDLNTFLNCIG | more than 80% |
| RNIPIPVGDIYGGGDIYKRWQALCL | 85% |
